Our source for the Kd values is paper PMC8933513 (2022).

The assay concerns the target porcine aminopeptidase N ectodomain K374A (pig) (UniProt P15145). The assay is described as follows: SPR; BIAcore X-100, room temperature; hAPN/pAPN WT or mutant immobilised on CM5 chips via amine coupling; serially diluted PDCoV RBD WT or mutant flowed over in HEPES buffer (0.01 M HEPES, 0.15 M NaCl, 0.5% surfactant P20, 3 mM EDTA, pH 7.4); steady-state affinity model; each of two experiments listed.

Take “PDCoV RBD (receptor binding domain of the porcine deltacoronavirus spike protein), wild type (domain or fragment)”: the Kd was 25.2 µM.
